Pooled drug test results. Numbers come from NIAID ChemDB, via PubChem.

Common to all: toxicity to cultured cells; cell line: HeLa; measure: CC50

Rows are shuffled and stem from different studies. CCn: concentration that lowers growth or viability of the cells by n%.

structure | result
CS(=O)(=O)c1ccc(NCc2ccc(C(F)(F)F)cc2)nc1 | >10 µg/mL
CCOC(=O)c1ccc(OCCCCC(=O)c2ccc(C)s2)cc1 | >289 µM
CS(=O)(=O)c1ccc(Cc2ccccc2)nc1 | >10 µg/mL
CN(C(=O)c1c(O)c2cccnc2n(O)c1=O)C1CCN(C(=O)OC(C)(C)C)C1 | <100 µM
CCOC(=O)c1ccc(OCCCCC(=O)c2ccc(Cl)s2)cc1 | >273 µM
CCS(=O)(=O)c1ccc(NCc2ccc(Cl)c(Cl)c2)nc1 | >10 µg/mL
CCOC(=O)c1ccc(OCCCCC(=O)c2ccc(SC)cc2)cc1 | >268 µM
NCc1ccc(-c2ccc3c(c2)CN(c2cc(=O)n(O)c4ncccc24)C3)cc1 | 0.35 µM
O=C(CCCCOc1ccc(C2=NCCO2)cc1)c1ccccc1 | 51 µM
Cc1ccc(Cc2ccc(S(C)(=O)=O)cn2)cc1 | >10 µg/mL
CC(Br)Cc1cnc2c(c1)c(O)c(-c1ccccc1)c(=O)n2O | <100 µM
O=C(CCCCOc1ccc(C2=NCCO2)cc1)c1ccc(Cl)cc1 | >280 µM
Cn1cc(C(=O)CCCCOc2ccc(C3=NCCO3)cc2)cc1C=O | >282 µM
Cc1ccc(C(=O)CCCCOc2ccc(C3=NCCO3)cc2)cc1 | >296 µM
NCc1ccc(-c2ccc(-c3c(-c4ccccc4)c(=O)n(O)c4ncc(F)cc34)cc2)cc1 | 0.25 µM
CS(=O)(=O)c1ccc(NCc2ccc(Cl)c(Cl)c2)nc1 | >10 µg/mL
CC(=O)c1cnc2c(c1)c(O)c(-c1ccccc1)c(=O)n2O | <100 µM
CSc1ccc(C(=O)CCCCOc2ccc(C#N)cc2)cc1 | 307 µM
O=c1cc(NC(CN2CCOCC2)c2ccccc2)c2cccnc2n1O | <100 µM
Cn1cc(C(=O)CCCCOc2ccc(C(=O)O)cc2)cc1C=O | >303 µM
COc1ccc(C(=O)CCCCOc2ccc(C#N)cc2)cc1 | 194 µM
O=c1cc(Nc2ccccc2-c2ccccc2)c2cccnc2n1O | <100 µM
O=C(CCCCOc1ccc(C2=NCCO2)cc1)c1ccc(Cl)s1 | >271 µM

3 of the rows above, restated:

structure,result
NCc1ccc(-c2ccc(-c3c(-c4ccccc4)c(=O)n(O)c4ncc(F)cc34)cc2)cc1,0.25 µM
CSc1ccc(C(=O)CCCCOc2ccc(C#N)cc2)cc1,307 µM
Cc1ccc(Cc2ccc(S(C)(=O)=O)cn2)cc1,>10 µg/mL